PubChem BioAssay AID624099 | ICCB-Longwood – 2012

- Aim: 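Human genes that papillomavirus E2 requires to repress the HPV18 LCR promoter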 (primary screen)
- Cell system: human C33A cervical carcinoma cells (HPV-negative) stably expressing BPV1 E2 and an HPV18 LCR luciferase reporter
- Reagents: siRNA pool against human genes, 40 nM
- Duration: 72 h
- Measured: 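Per-well luciferase luminescence, z-scored on each plate against the plate mean and SD with control wells left out, then averaged across three replicate plates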
- Scale: mean z-score and z-score: higher = stronger reporter signal, weaker E2 silencing
- Hit rule: 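Mean z ≥ 2 together with z ≥ 2 in two or more of the three replicates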
Here is an unselected part of about 21,000 reagents tested. 497 of all reagents (2.4%) were called active. 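Higher z means weaker E2 silencing; only reporter increases were scored, and knock-downs that hurt cell survival may mask genuine repressor factors.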 The numbers tell different reagents against one gene apart.

The opening 3 records as a preview:
gene knocked down,reagent no.,mean z-score,"z-score, replicate A","z-score, replicate B","z-score, replicate C",outcome
"PSMD9 (proteasome 26S subunit, non-ATPase 9)",1,0.67,0.72,0.4,0.89,inactive
"AGL (amylo-alpha-1,6-glucosidase and 4-alpha-glucanotransferase)",1,0.59,0.43,0.5,0.83,inactive
CALML6 (calmodulin like 6),1,1.97,2.08,2.1,1.75,inactive

The listing, from the start:
gene knocked down,reagent no.,mean z-score,"z-score, replicate A","z-score, replicate B","z-score, replicate C",outcome
"PSMD9 (proteasome 26S subunit, non-ATPase 9)",1,0.67,0.72,0.4,0.89,inactive
"AGL (amylo-alpha-1,6-glucosidase and 4-alpha-glucanotransferase)",1,0.59,0.43,0.5,0.83,inactive
CALML6 (calmodulin like 6),1,1.97,2.08,2.1,1.75,inactive
IFNA1 (interferon alpha 1),1,0.39,0.51,0.37,0.28,inactive
DSTYK (dual serine/threonine and tyrosine protein kinase),1,0.34,0.28,0.42,0.32,inactive
BBOF1 (basal body orientation factor 1),1,-0.38,-0.54,-0.32,-0.26,inactive
EBF2 (EBF transcription factor 2),1,0.63,0.69,0.76,0.45,inactive
EBF2 (EBF transcription factor 2),2,-0.07,-0.45,0.36,-0.1,inactive
SAXO4 (stabilizer of axonemal microtubules 4),1,-0.08,0.29,0.08,-0.63,inactive
CLEC4G (C-type lectin domain family 4 member G),1,0.42,0.1,0.65,0.52,inactive
FKBP15 (FKBP prolyl isomerase family member 15),1,0.11,0.12,0.02,0.17,inactive
NCLN (nicalin),1,-0.66,-0.56,-0.71,-0.71,inactive
HPS6 (HPS6 biogenesis of lysosomal organelles complex 2 subunit 3),1,-1.27,-1.22,-1.23,-1.37,inactive
RBM5 (RNA binding motif protein 5),1,-0.08,-0.13,-0.14,0.02,inactive
LMNB1 (lamin B1),1,0.14,0.26,0.07,0.08,inactive
PRSS36 (serine protease 36),1,-0.99,-0.83,-1.13,-1.01,inactive
TRAF6 (TNF receptor associated factor 6),1,-1.12,-1.15,-1.14,-1.06,inactive
DCAF8 (DDB1 and CUL4 associated factor 8),1,0.22,-0.38,0.48,0.55,inactive
ACSS2 (acyl-CoA synthetase short chain family member 2),1,1.1,1.03,0.98,1.3,inactive
PPL (periplakin),1,0.08,-0.1,0.22,0.14,inactive
LINC02139 (long independently transcribed non-coding RNA 2139),1,0.08,0.04,0.2,-0.01,inactive
UGT2B10 (UDP glucuronosyltransferase family 2 member B10),1,-0.95,-1.01,-0.98,-0.85,inactive
LOC389129 (retired record),1,-1.1,-0.82,-1.27,-1.2,inactive
SNX21 (sorting nexin family member 21),1,0.31,0.38,0.23,0.33,inactive
POLN (DNA polymerase nu),1,0.59,0.69,0.68,0.4,inactive
DAZ4 (deleted in azoospermia 4),1,-1.28,-1.14,-1.29,-1.42,inactive
CIPC (CLOCK interacting pacemaker),1,1.65,1.29,1.7,1.97,inactive
CCDC50 (coiled-coil domain containing 50),1,0.44,-0.02,0.76,0.56,inactive
CCDC102B (coiled-coil domain containing 102B),1,-1.37,-1.19,-1.31,-1.62,inactive
DHPS (deoxyhypusine synthase),1,0.04,0.14,0.07,-0.08,inactive
ZBTB22 (zinc finger and BTB domain containing 22),1,1.19,0.93,1.33,1.33,inactive
AMPD3 (adenosine monophosphate deaminase 3),1,0.76,0.95,0.92,0.4,inactive
ZDHHC14 (zDHHC palmitoyltransferase 14),1,0.22,-0.04,0.22,0.47,inactive
TMBIM4 (transmembrane BAX inhibitor motif containing 4),1,0.87,0.91,0.71,0.98,inactive
LOC441534 (retired record),1,-0.06,-0.36,0.01,0.17,inactive
ACD,1,1.7,1.61,1.59,1.9,inactive
HAVCR1 (hepatitis A virus cellular receptor 1),1,0.75,0.91,0.64,0.7,inactive
RBMY1B (RNA binding motif protein Y-linked family 1 member B),1,-0.26,0.08,-0.37,-0.5,inactive
"TECRL (trans-2,3-enoyl-CoA reductase like)",1,-0.83,-1.17,-0.87,-0.43,inactive
LOC387905 (retired record),1,-0.12,-0.42,-0.25,0.3,inactive
SLC7A5P2,1,0.8,0.79,0.68,0.91,inactive
SELENOP (selenoprotein P),1,1.25,0.98,1.49,1.27,inactive
LOC389345 (retired record),1,1.7,1.64,1.43,2.04,inactive
ADAM2 (ADAM metallopeptidase domain 2),1,-0.67,-0.5,-0.78,-0.73,inactive
GLO1 (glyoxalase I),1,2.97,2.76,3.04,3.1,active
MT3 (metallothionein 3),1,0.29,0.88,0.08,-0.08,inactive
PTPRJ (protein tyrosine phosphatase receptor type J),1,0.5,0.24,0.74,0.52,inactive
TMUB1 (transmembrane and ubiquitin like domain containing 1),1,-2.14,-2.35,-1.91,-2.16,inactive
SLC46A1,1,1.78,1.74,1.71,1.87,inactive
ITM2A (integral membrane protein 2A),1,-0.26,-0.22,-0.38,-0.18,inactive
PTGER3 (prostaglandin E receptor 3),1,0.06,-0.03,0,0.21,inactive
"TLE5 (TLE family member 5, transcriptional modulator)",1,-0.46,-0.65,-0.46,-0.26,inactive
DRD1 (dopamine receptor D1),1,-0.28,-0.17,-0.38,-0.29,inactive
VSIG2 (V-set and immunoglobulin domain containing 2),1,0.63,0.64,0.74,0.51,inactive
"ST13P5 (ST13, Hsp70 interacting protein pseudogene 5)",1,0.13,0.52,-0.13,0,inactive
SREBF1 (sterol regulatory element binding transcription factor 1),1,0.71,0.66,1.07,0.4,inactive
ZFPL1 (zinc finger protein like 1),1,-0.69,-0.58,-0.7,-0.79,inactive
